Pooled drug test results. Numbers come from NIAID ChemDB, via PubChem.

All rows: tests in culture; organism: Mycobacterium tuberculosis

An empty or dashed field is not shown.

structure	mutations	tested at	endpoint	conditions	read by	strain or isolate	value
COc1ccc(/C=C/C(=N\NC(=O)c2ccccc2)c2sc(Nc3ccc([N+](=O)[O-])cc3)nc2C)cc1OC	-	-	MIC bound	-	BACTEC	H37Rv	>6.25 µg/mL
C/C=N/n1c(C)nc2scc(-c3ccco3)c2c1=O	-	-	MIC	-	-	CNCTC MY331/88	60 µM
CN[C@@H]1[C@H](O[C@H]2[C@H](O[C@H]3[C@H](O)[C@@H](O)[C@H](N=C(N)N)[C@@H](O)[C@@H]3N=C(N)N)O[C@@H](C)[C@]2(O)C=O)O[C@@H](CO)[C@H](O)[C@H]1O	-	-	MIC	-	-	MTB24 (S)	0.3 µg/mL
CCOC(=O)CC(=O)c1sc(Nc2ccccc2)c(C(N)=O)c1N	-	6.25 µg/mL	inhibition	-	resazurin	H37Rv	-7%
N[C@@H]1CN(c2c(F)cc3c(=O)c(C(=O)O)cn([C@@H]4C[C@@H]4F)c3c2Cl)CC12CC2	Pre-XDR (fluoroquinolone-resistant)	-	MIC50	-	resazurin	Clinical strain	0.25 µg/mL
CC(C)/C=N/n1c(N)c(C#N)c(C#N)c1C(C)C	-	6.25 µg/mL	inhibition	-	resazurin	H37Rv	-5%
O=C1NC(=S)N/C1=C/c1cccc(OCCc2ccccc2)c1	-	-	EC50	-	BACTEC	H37Rv	<6.25 µg/mL
CO[C@H]1/C=C/O[C@@]2(C)Oc3c(C)c(O)c4c(=O)c(c5oc6cc(N7CCN(CC(C)C)CC7)cc(=O)c6nc5c4c3=C2O)NC(=O)/C(C)=C\C=C\[C@H](C)[C@H](O)[C@@H](C)[C@@H](O)[C@@H](C)[C@H](OC(C)=O)[C@@H]1C	-	-	MIC	-	-	TBSMI-1 (rifampin-susceptible)	<0.01 µg/mL
NNC(=O)c1cnc2ccccc2c1	-	-	MIC	-	BACTEC	H37Ra	>6.25 µg/mL
CO[C@H]1/C=C/O[C@@]2(C)Oc3c(C)c(O)c4c(O)c(c(/C=N/N5CCN(C)CC5)c(O)c4c3C2=O)NC(=O)/C(C)=C\C=C\[C@H](C)[C@H](O)[C@@H](C)[C@@H](O)[C@@H](C)[C@H](OC(C)=O)[C@@H]1C	-	-	MIC	-	-	Clinical isolate 1	0.5 µg/mL
COc1ccc2c(ccc3nc(C)[nH]c(=O)c32)c1	-	12.5 µg/mL	inhibition	-	BACTEC	H37Rv	-14%
O=C1NC(=S)N/C1=C/c1ccc2ccccc2c1	-	6.25 µg/mL	inhibition	-	BACTEC	H37Rv	53%
S=c1oc2ccc(Br)cc2c(=S)n1-c1ccc(Cl)cc1	-	-	MIC	14 d	-	My 331/88	1 µM
O=C(NN1C(=O)[C@H]2CCCC[C@H]2C1=O)c1ccc(-n2cccc2)cc1	-	-	MIC	-	resazurin	H37Rv	3.125 µg/mL
COc1ccc2c(-c3ccccc3)cc(N3CCN(c4ccccc4)CC3)nc2n1	-	-	MIC	-	-	H37Rv	>6.25 µg/mL
Fc1cccc(-n2c(=S)oc3ccc(Br)cc3c2=S)c1	-	-	MIC	21 d	-	My 331/88	4 µM
NC(=O)c1cnccn1	-	-	MIC	-	-	Isolate 97-1052	300 µg/mL
CCCCCNC(=O)c1cc(C2C3CC4CC(C3)CC2C4)c2ccccc2n1	-	6.25 µg/mL	inhibition	-	BACTEC	H37Ra	14%
c1ccc(-c2cc3ccc(N4CCNCC4)nc3nc2N2CCNCC2)cc1	-	-	MIC	-	-	H37Rv	>6.25 µg/mL
O=C(NNC(=O)c1cccnc1)Nc1cccc(Cl)c1Cl	-	-	MIC bound	-	BACTEC	H37Rv	>12.5 µg/mL
COc1ccc(/C=C2/NC(=S)NC2=O)c(OC)c1	-	-	EC50	-	BACTEC	H37Rv	<6.25 µg/mL
Cc1c(CN2CCOCC2)c(CN2CCOCC2)c(C)n1C1CCCCC1	-	-	MIC	-	-	103471	>64 µg/mL
Cc1cn([C@@H]2C[C@@H](N=C(N)NO)[C@H](CO)O2)c(=O)[nH]c1=O	-	6.25 µg/mL	inhibition	-	resazurin	H37Rv	-8%
NNC(=O)c1cc2ccccc2nc1C12CC3CC(CC(C3)C1)C2	-	-	MIC	-	BACTEC	H37Ra	>6.25 µg/mL
Nc1ccc2c(-c3ccccc3)cc(N3CCN(c4ccccc4)CC3)nc2n1	-	6.25 µg/mL	inhibition	-	-	H37Rv	94%
O=C(Nc1ccc(S(=O)(=O)Nc2nccs2)cc1)c1ccncc1	-	6.25 µg/mL	inhibition	-	resazurin	H37Rv	15%
CCCOc1ccc(/C=C2/NC(=S)NC2=O)cc1	-	-	EC50	-	BACTEC	H37Rv	<6.25 µg/mL
C=CC(O)C#CC#CC(O)/C=C\CCCCCCCCOC(C)=O	-	-	MIC90	-	resazurin	H37Rv	25.3 µg/mL
Cc1[nH]c(-c2ccc(Cl)cc2)c(CN2CCN(C)CC2)c1CN1CCN(C)CC1	-	-	MIC	-	-	103471	>64 µg/mL
CCc1nc2ccccc2n1CCCCNc1ccc(-c2ccccn2)cc1	-	-	MIC99	-	turbidity / fluorescence	H37Rv	0.8 µM
NC[C@@H]1O[C@H](O[C@H]2[C@@H](O)[C@H](O[C@@H]3[C@@H](O)[C@H](N)C[C@H](N)[C@H]3O[C@H]3O[C@H](CO)[C@@H](O)[C@H](O)[C@H]3N)O[C@@H]2CO)[C@H](N)[C@@H](O)[C@@H]1O	-	-	MIC	-	-	MTB17 (INH RIF-R)	<0.19 µg/mL
CCC(C)OC(=O)N1CCN(c2nc3nc(Cl)ccc3cc2-c2ccccc2)CC1	-	-	MIC	-	-	H37Rv	>6.25 µg/mL
CO[C@H]1/C=C/O[C@@]2(C)Oc3c(C)c(O)c4c(O)c(c(/C=N/N5CCN(C)CC5)c(O)c4c3C2=O)NC(=O)/C(C)=C\C=C\[C@H](C)[C@H](O)[C@@H](C)[C@@H](O)[C@@H](C)[C@H](OC(C)=O)[C@@H]1C	-	-	MIC	-	-	PR1370	0.16 µg/mL
Cc1[nH]c(C)c(CN2CCN(C)CC2)c1CN1CCN(C)CC1	-	-	MIC	-	-	103471	>64 µg/mL
CN[C@@H]1[C@H](O[C@H]2[C@H](O[C@H]3[C@H](O)[C@@H](O)[C@H](N=C(N)N)[C@@H](O)[C@@H]3N=C(N)N)O[C@@H](C)[C@]2(O)C=O)O[C@@H](CO)[C@H](O)[C@H]1O	-	-	MIC	-	-	Clinical isolate 1	>100 µg/mL
CCCCOc1ccc(Nc2cn(C3C=CC(O)C3)c(=O)n(C3C=CC(O)C3)c2=O)cc1	-	-	MIC99	-	turbidity	H37Rv	20 µg/mL
Cc1ccc(N2C(=O)CSC2=S)cc1Cl	-	12.5 µg/mL	inhibition	-	BACTEC	H37Rv	-12%
Cc1cc(CN2CCOCC2)c(C)n1Cc1ccccc1	-	-	MIC	-	-	103471	>64 µg/mL
CCC(C)OC(=O)N1CCN(c2nc3nc(N4CCOCC4)ccc3cc2-c2ccccc2)CC1	-	-	MIC	-	-	H37Rv	>6.25 µg/mL
NNC(=O)Cc1ccnc2ccccc12	-	-	MIC	-	BACTEC	H37Ra	>6.25 µg/mL
COc1ccc2cc(-c3ccccc3)c(N3CCN(C(=O)OC(C)C)CC3)nc2n1	-	-	MIC	-	-	H37Rv	>6.25 µg/mL
O=C1NC(=S)N/C1=C/c1cccc(OCc2ccc(Cl)cc2Cl)c1	-	6.25 µg/mL	inhibition	-	BACTEC	H37Rv	84%
O=c1oc2ccc(F)cc2c(=S)n1-c1ccc(C(F)(F)F)cc1	-	-	MIC	21 d	-	My 331/88	4 µM
O=C(/N=N/C(=O)N1CCCCC1)N1CCCCC1	-	-	MIC bound	-	BACTEC	H37Rv	>12.5 µg/mL
Cc1nc2scc(-c3ccco3)c2c(=O)n1/N=C/c1cccs1	-	-	MIC	-	-	CNCTC MY331/88	54 µM
Cc1ccc(C)n1-c1ccc(C(=O)NN2C(=O)c3ccccc3C2=O)cc1	-	-	MIC	-	resazurin	H37Rv	0.4 µg/mL
c1ccc(-c2cc(N3CCN(c4ccccc4)CC3)nc3nc(N4CCN(c5ccccc5)CC4)ccc23)cc1	-	6.25 µg/mL	inhibition	-	-	H37Rv	47%
Cc1[nH]n(-c2ccc(Cl)cc2)c(=O)c1N=Nc1cccc(C(F)(F)F)c1	-	-	MIC	-	BACTEC	H37Rv	≥12.8 µg/mL
O=C1NC(=S)N/C1=C/c1ccc(Cl)cc1Cl	-	-	EC50	-	BACTEC	H37Rv	>6.25 µg/mL
COc1ccc(Cc2c(C)c(C#N)c3[nH]c4ccccc4n3c2=O)cc1	-	-	MIC	-	broth dilution	H37Rv	0.25 µg/mL
Cc1ccc(C)n1-c1nc(-c2ccc([N+](=O)[O-])cc2)cs1	-	-	MIC	-	resazurin	H37Rv	0.4 µg/mL
Cc1ccc(-c2n[nH]c(=O)n2-n2c(C)ccc2C)cc1	-	-	MIC	-	-	1075	2.58 µg/mL
Cc1cc(N/N=C/c2ccccn2)nc2ccccc12	-	-	MIC bound	-	BACTEC	H37Rv	≤12.5 µg/mL
NNC(=O)c1ccncc1	-	-	MIC	-	fluorescence / absorbance	H37Rv	0.97 µM
Cc1ccc(C(=O)Nn2c(C)nc3scc(-c4ccco4)c3c2=O)cc1	-	-	MIC	-	-	CNCTC MY331/88	96 µM
CN(c1ccccc1)c1cc2nc3ccccc3nc2cc1O	-	-	MIC bound	-	BACTEC	H37Rv	≤12.5 µg/mL
C[C@H]1COc2c(N3CCN(C)CC3)c(F)cc3c(=O)c(C(=O)O)cn1c23	-	-	MIC50	-	-	44 isolates (resistant)	0.5 µg/mL
COc1ccc(OC)c(/C=C2/NC(=S)NC2=O)c1	-	6.25 µg/mL	inhibition	-	BACTEC	H37Rv	57%
C[C@@]1(CO)[C@H](O)CC[C@@]2(C)[C@H]1CC[C@H]1C[C@@H]3C[C@@]12CC[C@]3(O)CO	-	-	MIC bound	-	BACTEC	H37Rv	>12.5 µg/mL
Cc1c(Cc2ccccc2Cl)c(=O)n2c([nH]c3ccccc32)c1C#N	-	-	MIC	-	broth dilution	H37Rv	>128 µg/mL
O=[n+]1c2ccccc2n([O-])c2ccccc21	-	-	MIC	-	-	PAS-R	3.1 µg/mL
Cc1[nH]c(-c2ccc(Cl)cc2)c(CN2CCOCC2)c1CN1CCOCC1	-	-	MIC	-	-	103471	>64 µg/mL
CCOc1ccc2c(c1)n([O-])c1cc(Br)ccc1[n+]2=O	-	-	MIC	-	-	TAC-R	3.1 µg/mL
CC1COc2c(N3CCN(C)CC3)c(F)cc3c(=O)c(C(=O)O)cn1c23	-	-	MIC50	-	-	25 strains	0.78 µg/mL
Cc1cccc(Nc2c[nH]c(=O)[nH]c2=O)c1	-	-	MIC99	-	turbidity	H37Rv	20 µg/mL
COc1ccc(/C=N/n2c(C)nc3scc(-c4ccco4)c3c2=O)cc1	-	-	MIC	-	-	CNCTC MY331/88	15 µM
Cc1ccc2oc(=S)n(-c3cccc(F)c3)c(=S)c2c1	-	-	MIC	14 d	-	My 331/88	4 µM
NNC(=O)Cc1cc(C2CCCC2)nc2ccccc12	-	6.25 µg/mL	inhibition	-	BACTEC	H37Ra	1%
CO/N=C1\CN(c2nc3c(cc2F)c(=O)c(C(=O)O)cn3C2CC2)CC1CN	-	-	Mean MIC	-	-	250 isolates	5.12 µg/mL
O=C(Nc1nc2ccc(Cl)cc2[nH]1)c1ccccc1O	-	0.5 µM	inhibition	-	BACTEC	-	11%
CO[C@H]1/C=C/O[C@@]2(C)Oc3c(C)c(O)c4c(O)c(c(/C=N/N5CCN(C)CC5)c(O)c4c3C2=O)NC(=O)/C(C)=C\C=C\[C@H](C)[C@H](O)[C@@H](C)[C@@H](O)[C@@H](C)[C@H](OC(C)=O)[C@@H]1C	531Leu	-	MIC99	-	-	-	≥640 µg/mL
O=C(NNc1ccc([N+](=O)[O-])cn1)Nc1cccc2ccccc12	-	12.5 µg/mL	inhibition	-	BACTEC	H37Rv	18%
Cc1ccc(C)n1-c1nc(-c2ccc(Cl)cc2)cs1	-	-	MIC	-	resazurin	H37Rv	0.8 µg/mL
NNC(=O)c1cc(C2CCCC2)c2cccc(C3CCCC3)c2n1	-	6.25 µg/mL	inhibition	-	BACTEC	H37Ra	92%
O=C1NC(=S)N/C1=C/c1ccc2c(c1)OCO2	-	-	EC50	-	BACTEC	H37Rv	>6.25 µg/mL
COc1cc(C)c2c(=O)c3c(oc2c1)C(=O)c1c(O)c(OC)cc(O)c1C3=O	-	-	MIC	-	BACTEC	H37Rv	≥12.5 µg/mL
NNC(=O)c1ccncc1	-	-	MIC	-	-	Clinical isolate 11	>100 µg/mL
O=C1C(=O)N(c2ccccc2)C(=O)N1CCN1C(=O)C(=O)N(c2ccccc2)C1=O	-	-	MIC bound	-	BACTEC	H37Rv	>12.5 µg/mL
C=CC(O)C#CC#CC(O)C1OC1CCCCCCC	-	-	MIC90	-	resazurin	Erdman	>60 µg/mL
CCCCc1ccc(Nc2c[nH]c(=O)[nH]c2=O)cc1	-	-	MIC99	-	turbidity	H37Rv	10 µg/mL
O=C1c2ccccc2C(=Cc2cccnc2)c2ccccc21	-	-	MIC bound	-	BACTEC	H37Rv	>12.5 µg/mL
CC(C)(C)c1ccc(CNc2ccccc2C2=NCCN2)cc1	-	-	MIC	-	-	103471	1 µg/mL

The last 7 rows once more:

structure	mutations	tested at	endpoint	conditions	read by	strain or isolate	value
COc1cc(C)c2c(=O)c3c(oc2c1)C(=O)c1c(O)c(OC)cc(O)c1C3=O	-	-	MIC	-	BACTEC	H37Rv	≥12.5 µg/mL
NNC(=O)c1ccncc1	-	-	MIC	-	-	Clinical isolate 11	>100 µg/mL
O=C1C(=O)N(c2ccccc2)C(=O)N1CCN1C(=O)C(=O)N(c2ccccc2)C1=O	-	-	MIC bound	-	BACTEC	H37Rv	>12.5 µg/mL
C=CC(O)C#CC#CC(O)C1OC1CCCCCCC	-	-	MIC90	-	resazurin	Erdman	>60 µg/mL
CCCCc1ccc(Nc2c[nH]c(=O)[nH]c2=O)cc1	-	-	MIC99	-	turbidity	H37Rv	10 µg/mL
O=C1c2ccccc2C(=Cc2cccnc2)c2ccccc21	-	-	MIC bound	-	BACTEC	H37Rv	>12.5 µg/mL
CC(C)(C)c1ccc(CNc2ccccc2C2=NCCN2)cc1	-	-	MIC	-	-	103471	1 µg/mL

Inhibition is in % at the dose shown (toxicity tests: loss of growth or viability). ECn is the concentration giving n% inhibition of infection, replication or growth. MIC50, MIC90 and the like: level of inhibition, or share of isolates inhibited. MIC bound comes from a single tested concentration. Rows are shuffled and stem from different studies.